Measured values from several laboratories, pooled; numbers as filed in NIAID ChemDB.

Shared fields: whole-cell or culture tests; agent: HIV-1; cell line: C8166; measure: EC50

ECn: concentration that inhibits the pathogen or its effect by n%. Rows are shuffled and stem from different studies. Blank or dashed fields: not listed here.

structure | strain | mutations | read by | conditions | result
CC(C)(C)NC(=O)[C@@H]1C[C@@H]2CCCC[C@@H]2CN1C[C@@H](O)[C@H](Cc1ccccc1)NC(=O)[C@H](CC(N)=O)NC(=O)c1ccc2ccccc2n1 | MN | - | ELISA | - | <0.001 µg/mL
CC(C)[C@H](NC(=O)c1ccc2ccccc2n1)C(=O)N[C@@H](Cc1ccccc1)[C@H](O)CN1CC[C@@H](OCc2ccncc2)C[C@H]1C(=O)NC(C)(C)C | AZT-resistant | - | p24 | - | 0.015 µM
CC(C)(C)OC(=O)[C@@H]1CCCN1C[C@@H](O)[C@H](Cc1ccccc1)NC(=O)[C@H](CC(N)=O)NC(=O)c1ccc2ccccc2c1 | RF | - | p24 | - | 0.13 µM
CC(=O)[C@]12CCC(C)(C)C=C1C1=CCC3[C@@]4(C)CCC(=O)C(C)(C)C4CC[C@@]3(C)[C@]1(C)CC2 | IIIB | - | syncytia | - | 6.16 µM
Nc1ncnc2c1ncn2[C@H]1C=C[C@@H](CO)O1 | IIIB | - | syncytia | - | >50 µM
C[C@@H]1CC[C@@]2(O)C13CC(=O)C1(C)C2(C)CO[C@]1(OC(=O)c1ccccc1)[C@@H]3O | IIIB | - | syncytia | - | 44 µM
Cc1cn([C@H]2C[C@H](N=[N+]=[N-])[C@@H](CO)O2)c(=O)[nH]c1=O | IIIB | - | p24 | - | <0.04 µg/mL
C=CCc1cc2c(cc1OCC=C(C)C)OCO2 | IIIB | - | syncytia | - | 49.9 µM
O=c1[nH]cnc2c1ncn2[C@H]1CC[C@@H](CO)O1 | IIIB | - | syncytia | - | 12 µM
CC(C)=CCn1cc2c(c1)S(=O)(=O)c1cc(Cl)ccc1NC2=O | Clinical isolate | RT-K103N | cytopathic effect / MTT | - | ≥30 µM
CO[C@H]1/C=C/O[C@@]2(C)Oc3c(C)c(O)c4c(c3C2=O)C(=O)C(SCCOC(=O)CCC(=O)OC[C@H]2O[C@@H](n3cc(C)c(=O)[nH]c3=O)CC2O)=C(NC(=O)/C(C)=C\C=C\[C@H](C)[C@H](O)[C@@H](C)[C@@H](O)[C@@H](C)[C@H](OC(C)=O)[C@@H]1C)C4=O | IIIB | - | p24 | - | >20 µM
Cc1cn([C@H]2C[C@H](N=[N+]=[N-])[C@@H](CO)O2)c(=O)[nH]c1=O | MN | - | MTT | - | 0.00335 µM
CC1=C[C@H]([C@H](O)[C@H](C)[C@@H]2C[C@@H](O)[C@@]3(O)[C@H]4CC[C@@H]5C(C)(C)O[C@H]6CC(=O)O[C@]65C[C@]4(O)CC[C@@]23C)OC1=O | IIIB | - | syncytia | - | 7.71 µg/mL
Cc1cc(S(N)(=O)=O)ccc1NC(=O)COc1ccccc1NS(=O)(=O)c1ccc(Cl)cc1 | IIIB | - | syncytia | - | 0.667 µM
S=C(Nc1cccc2ccccc12)Nn1c(-c2ccc(Br)cc2)c[nH]c1=S | IIIB | - | syncytia / visual reading | - | 0.57 µM
Nc1nc(Cl)nc2c1ncn2[C@H]1CC[C@@H](CO)O1 | HXBc2 | - | RT activity | - | <100 µM
C=C(C)[C@@H]1CC[C@]2(CCO)CC[C@]3(C)C(CCC4[C@@]5(C)CC/C(=C\O)C(C)(C)C5CC[C@]43C)C12 | IIIB | - | syncytia | - | 103 µM
Cc1nc(CCCCCOCc2ccccc2)n2nc(Cl)ccc12 | RF | - | p24 | - | 0.38 µM
NS(=O)(=O)c1ccc(NC(=O)COc2ccccc2NS(=O)(=O)c2ccc(Cl)cc2)cc1 | IIIB | - | syncytia | - | 0.161 µM
CO[C@H]1/C=C/O[C@@]2(C)Oc3c(C)c(O)c4c(c3C2=O)C(=O)C(SCCOC(=O)CCCC(=O)OC[C@@H]2O[C@H](n3cc(C)c(=O)[nH]c3=O)C[C@H]2N=[N+]=[N-])=C(NC(=O)/C(C)=C\C=C\[C@H](C)[C@H](O)[C@@H](C)[C@@H](O)[C@@H](C)[C@H](OC(C)=O)[C@@H]1C)C4=O | IIIB | - | p24 | - | 0.07 µM
COc1ccc(-c2c[nH]c(=S)n2NC(=S)Nc2ccc(Cl)cc2)cc1 | IIIB | - | syncytia / visual reading | - | 1.96 µM
CC(C)=CCN1Cc2cc(Cl)cc3[nH]c(=S)n(c23)C[C@@H]1C | MN | - | cytopathic effect | - | 0.0018 µM
C/C=C/c1ccc(OCC=C(C)C)c(OC)c1 | IIIB | - | syncytia | - | 41 µM
CCN1c2ncccc2N(C)C(=O)c2oc3ccccc3c21 | IIIB | - | cytopathic effect | - | 1.6 µM
COc1ccc(S(=O)(=O)Nc2cc(Cl)ccc2OCC(=O)Nc2ccc(S(N)(=O)=O)cc2C)cc1 | IIIB | - | syncytia | - | 2.454 µM
CC(=O)O[C@@]12C[C@@H](C)[C@@]3(O)[C@@H](C=C(CO)C[C@]4(O)C(=O)C(C)=C[C@@H]34)[C@@H]1C2(C)C | 74V | - | p24 / ELISA | - | 2.457 µM
C=C(C)[C@@H]1CC[C@]2(CC(=O)O)CC[C@]3(C)C(CCC4[C@@]5(C)CCC(=O)C(C)(C)C5CC[C@]43C)C12 | IIIB | - | syncytia | - | 0.17 µM
CC(C)(C)NC(=O)[C@@H]1CCCCN1C[C@@H](O)[C@H](Cc1ccccc1)NC(=O)[C@H](CC(N)=O)NC(=O)c1ccc2ccccc2n1 | RF | - | p24 | - | 0.017 µM
Cc1cn([C@H]2C[C@H](N=[N+]=[N-])[C@@H](CO)O2)c(=O)[nH]c1=O | IIIB | - | p24 | - | 0.1 µg/mL
C=C(C)C1Cc2cc(C(C)=O)c(O)cc2O1 | - | - | p24 / syncytia | - | 16 µg/mL
Cc1nc(CCCCCCC(=O)c2ccccc2)n2nc(Cl)ccc12 | RF | - | p24 | - | 0.08 µM
CC(=O)[C@]12CCC(C)(C)CC1C1=CCC3[C@@]4(C)CCC(=O)C(C)(C)C4[C@H](O)C[C@@]3(C)[C@]1(C)CC2 | IIIB | - | syncytia | - | 3.4 µM
CCN1c2ncccc2-c2nccn2-c2ccc(N(C)C)nc21 | - | - | syncytia | 7 d | <0.1 µM
CO[C@H]1/C=C/O[C@@]2(C)Oc3c(C)c(O)c4c(c3C2=O)C(=O)C(SCCOC(=O)CCC(=O)OC[C@H]2O[C@@H](n3cc(C)c(=O)[nH]c3=O)C[C@@H]2N=[N+]=[N-])=C(NC(=O)/C(C)=C\C=C\[C@H](C)[C@H](O)[C@@H](C)[C@@H](O)[C@@H](C)[C@H](OC(C)=O)[C@@H]1C)C4=O | IIIB | - | p24 | - | 0.04 µM
Cc1cc(S(N)(=O)=O)ccc1NC(=O)COc1ccccc1NS(=O)(=O)c1ccccc1 | IIIB | - | syncytia | - | 14.5 µM
Cc1nc(CCCCCCC(=O)c2ccccc2)n2nc(-n3cncc3C)ccc12 | RF | - | p24 | - | 0.03 µM
O=c1[nH]cnc2c1ncn2[C@H]1CC[C@@H](CO)O1 | RF | - | syncytia | - | 2.3 µM
Cc1ccccc1NC(=S)Nn1c(-c2ccc(Br)cc2)c[nH]c1=S | IIIB | - | syncytia / visual reading | - | 3.39 µM
Cc1nc(CCCCCCC(O)c2ccccc2)n2nc(Cl)ccc12 | RF | - | syncytia | - | <0.08 µM
Cc1cn([C@H]2C[C@H](N=[N+]=[N-])[C@@H](CO)O2)c(=O)[nH]c1=O | IIIB | - | p24 / ELISA / antigen | - | 0.00147 µg/mL
CCN1c2ncccc2N(C)C(=O)c2sc3cccnc3c21 | IIIB | - | cytopathic effect | - | 0.04 µM
CC(C)(C)NC(=O)[C@@H]1CCCN1C[C@@H](O)[C@H](Cc1ccccc1)NC(=O)[C@H](CC(N)=O)NC(=O)OCc1ccccc1 | RF | - | p24 | - | 0.4 µM
O=C(O)c1cc(O)c(O)c(O)c1 | IIIB | - | syncytia | - | 18.48 µM
CCN1c2ncccc2-c2nccn2-c2ccc(OC)nc21 | - | - | syncytia | 7 d | <0.1 µM
C=CCC1(CC=C(C)C)C=C2OCOC2=CC1=O | IIIB | - | syncytia | - | 46.8 µM
CC(C)=CCN1Cc2cc(Cl)cc3[nH]c(=S)n(c23)C[C@@H]1C | IIIB | - | cytopathic effect | - | 0.03 µM
Cc1cc(S(N)(=O)=O)ccc1NC(=O)COc1ccc(Cl)cc1NS(=O)(=O)c1ccc(Cl)cc1 | IIIB | - | syncytia | - | 1.607 µM
Cc1cc(O)cc(O)c1 | IIIB | - | syncytia | - | 37.43 µM
Cc1nc(CCCCCCC(O)c2ccccc2)n2nc(-n3ccnc3)ccc12 | RF | - | p24 | - | 0.004 µM
Cc1ccc(-c2c[nH]c(=S)n2NC(=S)Nc2ccc(Cl)cc2)cc1 | IIIB | - | syncytia / visual reading | - | 3.43 µM
CCOC(=O)c1c[nH]cc1S(=O)(=O)c1cc(Cl)ccc1N | Clinical isolate | RT-K103N | cytopathic effect / MTT | - | ≥30 µM
CCN1c2ncccc2N(C)C(=S)c2oc3cccnc3c21 | IIIB | - | cytopathic effect | - | 0.006 µM
O=c1c(O[C@@H]2O[C@H](CO)[C@@H](O)[C@H](O)[C@H]2O)c(-c2ccc(O)cc2)oc2cc(O)cc(O)c12 | MN | - | ELISA | - | 8 µg/mL
Cc1ccc(NC(=S)Nn2c(-c3ccc(Br)cc3)c[nH]c2=S)c(C)c1 | IIIB | - | syncytia / visual reading | - | 12.43 µM
CC1=C(C(=O)O[C@]23OCC4(C)C2(C)C(=O)CC2([C@H](C)CC[C@@]24O)[C@H]3O)CCC1 | IIIB | - | syncytia | - | 41.8 µM
O=C(/C=C/c1ccc(O)cc1)OC[C@H]1O[C@@H](Oc2c(-c3ccc(O)cc3)oc3cc(O)cc(O)c3c2=O)[C@H](O)[C@@H](O)[C@@H]1O | MN | - | ELISA | - | 8 µg/mL
S=C(Nc1cccc2ccccc12)Nn1c(-c2ccc(Cl)cc2)c[nH]c1=S | IIIB | - | syncytia / visual reading | - | 3.43 µM
OCC1OC(OCCc2ccccc2)C(O)C(O)C1O | MN | - | ELISA | - | >250 µg/mL
Nc1ccn([C@H]2CC[C@@H](CO)O2)c(=O)n1 | CC | - | cytopathic effect / MTT | - | 1.54 µM
COc1ccc(-c2c[nH]c(=S)n2NC(=S)Nc2ccc(Br)cc2)cc1 | IIIB | - | syncytia / visual reading | - | 2.2 µM
Cc1ccc(S(=O)(=O)Nc2ccccc2OCC(=O)Nc2ccc(S(N)(=O)=O)cc2C)cc1 | IIIB | - | syncytia | - | 0.552 µM
C=C(C)C1Oc2ccc(C(C)=O)cc2C1O | - | - | p24 / syncytia | - | >50 µg/mL
NS(=O)(=O)c1ccc(NC(=O)COc2ccc(Cl)cc2NS(=O)(=O)c2ccccc2)cc1 | IIIB | - | syncytia | - | 0.686 µM
COc1ccc(/C=C/C(=O)O)cc1OC | IIIB | - | syncytia | - | 7.16 µM
Cc1cn(-c2ccc3c(C)nc(CCCCCCC(=O)c4ccccc4)n3n2)cn1 | RF | - | syncytia | - | 0.065 µM

3 of the rows above, restated:

structure | strain | mutations | read by | conditions | result
C=C(C)C1Cc2cc(C(C)=O)c(O)cc2O1 | - | - | p24 / syncytia | - | 16 µg/mL
CC(=O)[C@]12CCC(C)(C)CC1C1=CCC3[C@@]4(C)CCC(=O)C(C)(C)C4[C@H](O)C[C@@]3(C)[C@]1(C)CC2 | IIIB | - | syncytia | - | 3.4 µM
CCN1c2ncccc2N(C)C(=O)c2sc3cccnc3c21 | IIIB | - | cytopathic effect | - | 0.04 µM